Compound potency records, mixed from different reports. Data source: NIAID ChemDB in PubChem.

All rows: growth or infection tests; agent: Herpes simplex virus 1; cells: VERO; measure: EC50

Lines come from different laboratories, so protocols vary.

structure | strain or isolate | read by | value
Oc1ccc([C@H]2c3c(O)cc(O)cc3[C@@H]3c4c(cc(O)c5c4[C@H]2[C@@H](c2cc(O)cc(O)c2)[C@@H]5c2ccc4c(c2)[C@@H](c2cc(O)cc(O)c2)[C@H](c2ccc(O)cc2)O4)O[C@H]3c2ccc(O)cc2)cc1 | - | MTT | 9.1 µM
CCOc1ccc(-c2cc(N3CCCCC3)no2)c(O)c1 | ATCC VR733 | plaque count | >347 µM
Nc1nc2c(ncn2CC2CSC(P(=O)(O)O)O2)c(=O)[nH]1 | KOS | plaque count | 8 µg/mL
Nc1nc(=O)n([C@H]2C[C@H](O)[C@@H](CO)O2)cc1/C=C/Br | - | plaque count | 1.08 µM
Oc1ccc([C@@H]2c3c(O)cc(O)cc3[C@@H]3c4c(cc(O)cc4[C@H]2[C@H]2c4cc(O)cc5c4[C@@H](c4cc(O)cc(O)c4[C@H]2c2ccc(O)cc2)[C@@H](c2ccc(O)cc2)O5)O[C@@H]3c2ccc(O)cc2)cc1 | - | MTT | 8.7 µM
Nc1nc2c(ncn2COCCO)c(=O)[nH]1 | 1 | plaque count | 6.6 µM
N#Cc1c(-c2ccccc2)s[nH]c1=S | - | plaque count | >13 µg/mL
COc1ccc(-c2cc(N(C)C)no2)c(O)c1 | ATCC VR733 | plaque count | >427 µM
NC1=NC2C(C=CN2CC(CO)CCO)C(=O)N1 | B2006 (TK-) | cytopathic effect | >100 µg/mL
CCCCCC(=O)OCC(CO)CCn1cnc2c(=O)[nH]c(N)nc21 | HFEM | plaque count | 6 µM
Cc1cn([C@H]2C[C@H](O)[C@@H](CO)S2)c(=O)[nH]c1=O | E-377 | cytopathic effect | 0.8 µg/mL
O=C1C(=O)N([C@@H]2O[C@H](COCc3ccccc3)[C@@H](OCc3ccccc3)[C@H]2OCc2ccccc2)c2ccc(I)cc21 | - | virus yield | >50 µM
CCOC(=O)Sc1nsc(-c2ccccc2)c1C#N | - | plaque count | >5.8 µg/mL
O=c1cc(-c2ccc(-c3ccccc3)cc2)oc2ccccc12 | A4-3 | - | 15 µg/mL
Nc1nc2c(ncn2CCC(CO)CO)c(=O)[nH]1 | KD2 | plaque count | 0.9 µM
N#Cc1c(SCCCCSc2nsc(-c3ccccc3)c2C#N)nsc1-c1ccccc1 | - | plaque count | >4.9 µg/mL
Nc1ccn(CSC(CO)CO)c(=O)n1 | ICI | plaque count | >50 µM
Oc1ccc([C@H]2c3c(O)cc(O)cc3[C@H]3c4c(cc(O)c5c4[C@H]2[C@@H](c2ccc(O)cc2)[C@@H]5c2cc(O)cc(O)c2)O[C@@H]3c2ccc(O)cc2)cc1 | - | MTT | 16.7 µM
CCN(CC)c1noc(-c2ccc(O)cc2O)c1Cc1c(N(CC)CC)noc1-c1ccc(OC)cc1O | ATCC VR733 | plaque count | >3.5 µM
Nc1nc2c(ncn2CCC(O)CO)c(=O)[nH]1 | C915 TK- | plaque count | >200 µM
Fc1ccc(N2CCCCCC2)c(NC(=S)c2ccncc2)c1 | F | plaque count | 2.21 µM
Cc1ccc(SC[C@@H](OCn2cnc3c(N)ncnc32)[C@@H](C)F)cc1 | - | plaque count | >100 µg/mL
CCC[C@]1(CC(=O)O)OCCc2c1[nH]c1c(C)ccc(C#N)c21 | KOS | ELISA | >100 µM
C#CCOc1cc(OC)ccc1-c1cc(N(CC)CC)no1 | ATCC VR733 | plaque count | >40 µM
Cc1ccc(Cc2c(O)cc(O)cc2[C@@H]2c3c(cc(O)cc3[C@H](C)[C@@H](c3ccc(O)cc3)c3c(O)cc(O)cc3C[C@H](Oc3cccc(O)c3)c3ccc(O)cc3)O[C@H]2c2ccc(O)cc2)cc1.O | - | MTT | 17.9 µM
COc1cc2oc(-c3ccccc3)cc(=O)c2c(OC)c1OC | A4-3 | plaque count | 9.4 µg/mL
Nc1nc(N)c2ncn(COC(CO)CO)c2n1 | F | plaque count | >100 µM
O=C1Nc2ccc(F)cc2C1=O | - | virus yield | <50 µM
N#Cc1c(SSc2nsc(-c3ccccc3)c2C#N)nsc1-c1ccccc1 | - | plaque count | >8.69 µg/mL
Cc1cn([C@@H]2O[C@H](CO)[C@@H](O)[C@@H]2F)c(=O)[nH]c1=O | McKrae | plaque count | 0.78 µM
O=c1ccn(C[C@]2(CO)C[C@H]2CO)c(=O)[nH]1 | - | plaque count | >500 µg/mL
Nc1nc2c(ncn2C[C@H]2CC[C@@H](P(=O)(O)O)O2)c(=O)[nH]1 | KOS | plaque count | 44 µg/mL
Nc1nc2c(ncn2CCC(COC=O)COC=O)c(=O)[nH]1 | HFEM | plaque count | 5.8 µM
O=C1C(=O)N([C@@H]2O[C@H](COCc3ccccc3)[C@@H](OCc3ccccc3)[C@H]2OCc2ccccc2)c2ccc(F)cc21 | - | virus yield | >50 µM
COc1ccc(-c2cc(N3CCCC3)no2)c(O)c1 | ATCC VR733 | plaque count | >384 µM
Fc1ccc(N2CCCCC2)c(NC(=S)c2ccncc2)c1 | F | plaque count | 0.69 µM
CCc1cn([C@@H]2O[C@H](CO)[C@@H](O)[C@@H]2F)c(=O)[nH]c1=O | F | plaque count | 0.024 µM
CN(C)c1cc(-c2ccc(O)cc2O)on1 | ATCC VR733 | plaque count | >227 µM
CC(=O)OC[C@H]1O[C@H](O[C@H]2O[C@@H](COC(=O)/C=C/c3ccccc3)[C@H](O)C2(COC(C)=O)OC(=O)/C=C/c2ccccc2)[C@H](OC(C)=O)[C@@H](O)[C@@H]1OC(C)=O | 7401H | plaque count | >100 µg/mL
Oc1ccc([C@@H]2c3c(O)cc(O)cc3[C@H]3c4c(cc(O)cc4[C@H]2[C@@H]2c4cc(O)cc5c4[C@@H](c4cc(O)cc(O)c4[C@H]2c2ccc(O)cc2)[C@H](c2ccc(O)cc2)O5)O[C@@H]3c2ccc(O)cc2)cc1 | - | MTT | 17.3 µM
Cc1ccc(S(=O)C[C@H](CF)OCn2cnc3c(=O)[nH]c(N)nc32)cc1 | - | plaque count | >50 µg/mL
O=C(Nc1cc(F)ccc1N1CCc2ccccc21)c1ccncc1 | F | plaque count | >20 µM

For reference, 4 entries again:

{"structure": "Cc1cn([C@H]2C[C@H](O)[C@@H](CO)S2)c(=O)[nH]c1=O", "strain or isolate": "E-377", "read by": "cytopathic effect", "value": "0.8 µg/mL"}
{"structure": "Cc1ccc(Cc2c(O)cc(O)cc2[C@@H]2c3c(cc(O)cc3[C@H](C)[C@@H](c3ccc(O)cc3)c3c(O)cc(O)cc3C[C@H](Oc3cccc(O)c3)c3ccc(O)cc3)O[C@H]2c2ccc(O)cc2)cc1.O", "read by": "MTT", "value": "17.9 µM"}
{"structure": "Oc1ccc([C@@H]2c3c(O)cc(O)cc3[C@@H]3c4c(cc(O)cc4[C@H]2[C@H]2c4cc(O)cc5c4[C@@H](c4cc(O)cc(O)c4[C@H]2c2ccc(O)cc2)[C@@H](c2ccc(O)cc2)O5)O[C@@H]3c2ccc(O)cc2)cc1", "read by": "MTT", "value": "8.7 µM"}
{"structure": "COc1ccc(-c2cc(N(C)C)no2)c(O)c1", "strain or isolate": "ATCC VR733", "read by": "plaque count", "value": ">427 µM"}

ECn is the concentration giving n% inhibition of infection, replication or growth. An empty or dashed field is not shown.